PMC5557811 (Scientific Reports, 2017)

Columns and labels:
Fusarium graminearum = conditions: transgenic barley plants against F. graminearum; cited from earlier work
SdhB = assay: Fluorescent two-hybrid (F2H) assay in BHK-21 cells; conditions: 24 h after co-transfection
[1] = test system: iron-sulfur subunit (SdhB) of succinate–coenzyme Q reductase (SQR); assay: Yeast two-hybrid assay, F. graminearum cDNA library; conditions: pGBKT7::Mtk bait; selection on DDO/X/A, then QDO/X/A

## metchnikowin
Fusarium graminearum
  resistance of transgenic barley plants expressing Mtk: resistance
SdhB
  number of cells supporting the interaction: low
SdhB; fluorescence microscopy
  co-localization of Mtk-GFP and SdhB-RFP spots in nucleus: co-localization
[1]
  interaction with SdhB in yeast two-hybrid screen: a specific interaction
